## Library screen at single concentrations

From ChEMBL document CHEMBL3988442, “University of Dundee, Small-Polar-MMV Screening Library” (2021).

Results are given as percent effect.
The record does not define 0% and 100%; most values in the screen are far below 50% and negative numbers occur (in some assays of this library far below -100).
Many other results are left out here, so strong results are more common than in the screen.
A dash means the value is not listed here; it may have been measured.

Mtb glucose medium: 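Growth of Mycobacterium tuberculosis over 3 days (7H9 medium with glucose and tyloxapol); the read-out is not stated. Concentration: 500 µM. Higher reads as more growth inhibition (inferred: compounds with an IC50 in retests scored well above the rest). Size under these conditions: about 18,000 compounds, about 1,400 of them at 50% or above in at least one test.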
Mtb cholesterol medium: 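Whole-cell growth test on Mycobacterium tuberculosis, read after 4 days in a medium based on cholesterol and the lipid DPPC; the read-out is not stated. Compounds at 500 µM. The record gives no direction; compounds that gave an IC50 in retests scored well above the rest, so higher reads as more growth inhibition. About 18,000 compounds were tested under these conditions; 5% (about 900) showed 50% or more at least once.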

structure | Mtb glucose medium | Mtb cholesterol medium
NC1CCN(C(=O)c2ccncc2)C1 (stereo unspecified) | - | -25.59
O=C(NCCc1noc(C2CCC2)n1)C1CCCO1 (stereo unspecified) | 45.3 | -
CN(C)c1ncccc1CNS(=O)(=O)c1ccccc1 | 53.21 | -
CC(O)(CNc1ncccc1F)C1CCCC1 (stereo unspecified) | 65.78 | 65.12
CCN(CC)Cc1nn2c(=O)cc(C)nc2s1 | -1.983 | -
NC(=O)CN1CCC(NS(=O)(=O)c2cccs2)CC1 | 29.47 | -
CCN(CC(=O)NC)S(=O)(=O)c1ccc(C(N)=O)cc1 | 1.046 | -
CN(C)C(=O)N1CCC(C(=O)N2CCCC2)CC1 | - | 16.32
Cc1nn(C)c(C)c1CCC(=O)NC(CCO)C1CC1 (stereo unspecified) | - | -4.802
CCC1(C(=O)NCC2CCCNC2)CCCC1 (stereo unspecified) | - | -8.143
N#Cc1ccc(N2CCN(c3ncccn3)CC2)nc1 | -7.1 | -
c1cc(NCC2CCCO2)cnn1 (stereo unspecified) | 20.52 | -
NCCCNS(=O)(=O)c1ccc(Br)c(F)c1 | 57.06 | -
CC(CN)c1cccc(F)c1 (stereo unspecified) | 8.821 | -
N#CC1CNCCO1 (stereo unspecified) | -9.076 | -
COc1csc(-c2cc(N)n(C)n2)c1 | 10.27 | -
CC(=O)c1cccc(COC(=O)c2cccnc2)c1 | 56.3 | 99.72
Fc1ccc(Cn2ccnn2)c(Cl)c1 | - | 83
CS(=O)(=O)Cc1ccc(C(=O)NCC2CCCO2)cc1 (stereo unspecified) | - | -4.427
Cc1cc(NC(=O)CN2CCN(C(C)C)CC2)n(C)n1 | - | -21.66
CN(C)c1cc(CNC(=O)NC2CC2)ccn1 | 0.8495 | -
CNCCCNS(C)(=O)=O | - | -3.415
Cc1nnc(NC(=O)c2ccc(C#N)cc2)s1 | 6.038 | -
Cc1cc(C(=O)NCC(O)c2ccccc2Cl)no1 (stereo unspecified) | 57.8 | -
CN1N=C(C(=O)NCc2ccc(Cl)cc2)CCC1=O | 73.36 | 65.91
Cc1ccc(F)cc1NC(=O)NCC(=O)N1CCCC1 | -5.993 | -
COCC(=O)N(C)Cc1cc(Br)cs1 | 39.7 | -
NCCCNC(=O)c1ccc(O)cc1 | 0.3517 | -
CN(C)CC1CCN(C(=O)c2ccc(O)c(Cl)c2)CC1 | - | -10.04
CCOc1cc(C(=O)NC2=NCCS2)ccc1OC | 8.904 | -7.036
COCCc1nc(CC(C)N(C)C)n(CCO)n1 (stereo unspecified) | 1.711 | -
N#CC1(C(=O)N2CCc3sccc3C2)CCCC1 | 82.32 | 80.87
CC1CCCN(CC(=O)Nc2ccc3c(c2)OCO3)C1 (stereo unspecified) | 6.916 | -24.97
CC(C)(C)C(=O)CNC(=O)C1(C#N)CCCCC1 | 3.347 | -
CN(CCO)c1ccc(N)nc1 | -99.92 | -
NC(=O)COc1cccc(NC(=O)CSC(F)(F)F)c1 | 25.37 | -
CN(C)C(=O)CN(c1ccc(Cl)cc1Cl)S(C)(=O)=O | 12.56 | -
CC(C)c1ccc2c(c1)C(N)C(=O)N2 (stereo unspecified) | 87.47 | 50.54
Cc1nnc(SCCCNC(=O)c2csnn2)s1 | 1.969 | -
CN(C)c1cc(CNC(=O)c2ccc(Br)o2)ccn1 | 58.36 | -
CC(C)(CO)NC1CC1 | 3.606 | -
N#CCCN1CCN(C(=O)c2ccc(Cl)cc2F)CC1 | 43.31 | -
N#Cc1cccc(NCC(=O)NCc2ccco2)c1 | 70.34 | 53.27
CS(=O)(=O)Cc1cccc(CN)c1 | 4.366 | -
COCCOCC(=O)Nc1cc(C)c(Br)cn1 | 20.05 | -
c1ccc(-c2nnc(CC3CCNC3)[nH]2)cc1 (stereo unspecified) | - | -17.24
Cc1ccc(CCNC(=O)NC(CO)CC(C)C)cn1 (stereo unspecified) | -6.843 | 30.78
CC(C)CCn1ccc(NC(=O)N2CCC(O)C2)n1 (stereo unspecified) | - | -8.594
O=C(CCC(F)(F)F)Nc1ccc2[nH]nnc2c1 | - | 24.48
CN(C)S(=O)(=O)c1ccc(O)cc1 | 16.6 | -
CC(=O)N1CCC(NC(=O)c2ccc(C#N)cc2)CC1 | - | 1.753
N#Cc1cccc(NC(=O)NCCn2ccnc2)c1 | 14.43 | -
CC(C)c1ncc(C(=O)N2C[C@@H]3CCCN[C@@H]3C2)cn1 | 12.72 | -
Cc1nc2ccc(N)cn2n1 | - | -234.3
CCO[C@H]1CN(C)C[C@@H]1NC(=O)c1ccc(O)c(C)c1 | 0.979 | -
CCc1c(C)nc2sc(C(N)=O)c(N)c2c1C | - | -4.797
CN(C)CCSc1nnnn1-c1ccccc1 | 21.16 | 3.918
COc1ccc(OC)c(NC(=O)CNC(C)C)c1 | 33.1 | -
CCC(NC(=O)c1ccc(=O)[nH]c1)c1nc(C)c(C)s1 (stereo unspecified) | 0.9446 | -
O=C(CN1CCC(O)CC1)N1CCCCCCC1 | 10.63 | -
CNC(=O)[C@@H](C)Nc1ccc(C(F)(F)F)cn1 | 64.81 | -
NC1CCN(c2ncccc2Cl)C1 (stereo unspecified) | 86.08 | 77.63
CCC(=O)NC1CCCc2nc(N(C)C)ncc21 (stereo unspecified) | - | -29.64
O=C(Nc1cc(Cl)ccc1F)C1=COCCO1 | 68.53 | 71.69
COC(=O)Nc1ccc(S(=O)(=O)NC2CCNC2)cc1 (stereo unspecified) | 16.91 | -
CC(c1ccc(F)c(F)c1)N1CCN(CCO)C(=O)C1 (stereo unspecified) | 45.67 | -
CNCC1CCCN1C(=O)c1cccc(C)c1F (stereo unspecified) | 11.04 | -
NCc1csc(-c2ccco2)n1 | - | -19.99
Cc1ccc(F)c(S(=O)(=O)N2C[C@H](C3CC3)[C@@H](N)C2)c1 | 52.93 | -
CN1CCN(C(=O)C2CCC2)c2ccccc2C1 | -2.667 | -
Cc1noc(CN2CCC(C(N)=O)CC2)n1 | -3.443 | -
CCC(NC(=O)c1ccc(C)c(O)c1)[C@H]1C[C@H](O)C1 (stereo partly specified) | 7.626 | -
COC1CCC(CCN)CC1 (stereo unspecified) | 10.6 | -